# Replication capacity of HIV-1 mutants, Nef

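Random point mutant libraries of HIV-1 NL4-3, one for each of seven fragments, were passaged in CEM T lymphocytes. Sequencing gave the RC index: frequency after two rounds over frequency in the input plasmid.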

Protein: Nef of HIV-1 NL4-3, numbered from its first residue.
From base 9076 on, changes also alter the 3' U3.
Effects on overlapping genes or RNA elements are not listed.

RC index: lower means poorer replication; rough cut-offs are 0.1 (lethal) and 0.2 (tolerated).
A change reads original residue, position, new residue.
Nucleotide positions follow pNL4-3.
The authors read an index above 1 as above wild type (1.9% of all changes in the genome).
Clones carried about five changes per kilobase, which can drag down the index of neutral changes.

mutation | base | RC index
H102R | A9091G | 0.775
H102Q | C9092A | 0.378
H102Q | C9092G | 0.352
S103Y | C9094A | 0.361
S103C | C9094G | 0.880
S103F | C9094T | 0.955
Q104P | A9097C | 0.470
Q104R | A9097G | 1.21
Q104H | A9098C | 0.488
Q104H | A9098T | 0.673
R105G | A9099G | 0.714
R105S | A9101T | 0.702
R106G | A9102G | 0.493
R106I | G9103T | 0.251
R106S | A9104T | 0.770
Q107K | C9105A | 0.632
Q107R | A9106G | 0.726
Q107L | A9106T | 0.967
D108N | G9108A | 0.840
D108G | A9109G | 0.492
D108V | A9109T | 0.600
I109V | A9111G | 0.688
I109S | T9112G | 0.661
L110I | C9114A | 1.04
L110V | C9114G | 0.240
L110F | C9114T | 0.385
L110H | T9115A | 0.463
L110R | T9115G | 0.544
D111N | G9117A | 0.744
D111G | A9118G | 0.897
D111V | A9118T | 0.542
D111E | T9119A | 0.772
L112Q | T9121A | 0.258
L112P | T9121C | 0.577
L112R | T9121G | 1.96
W113R | T9123A | 0.408
W113G | T9123G | 0.717
W113S | G9124C | 0.865
W113L | G9124T | 0.835
I114L | A9126C | 0.541
I114V | A9126G | 1.04
I114M | C9128G | 0.777
Y115H | T9129C | 1.28
Y115F | A9130T | 0.641
H116D | C9132G | 0.498
H116L | A9133T | 0.559
H116Q | C9134A | 0.874
T117P | A9135C | 0.892
T117S | A9135T | 0.935
T117R | C9136G | 0.585
Q118R | A9139G | 0.790
Q118L | A9139T | 0.729
Q118H | A9140T | 0.765
G119S | G9141A | 0.596
G119C | G9141T | 0.568
G119D | G9142A | 0.719
Y120N | T9144A | 0.743
Y120F | A9145T | 0.553
P122H | C9151A | 0.593
P122R | C9151G | 0.778
P122L | C9151T | 0.619
D123N | G9153A | 0.666
D123E | T9155A | 0.670
W124R | T9156A | 0.722
W124R | T9156C | 0.437
W124G | T9156G | 0.538
W124S | G9157C | 0.488
W124C | G9158T | 0.252
Q125K | C9159A | 0.659
Q125R | A9160G | 0.588
Q125L | A9160T | 0.510
Q125H | G9161T | 1.05
N126K | C9164A | 0.880
Y127N | T9165A | 0.232
Y127H | T9165C | 0.634
Y127C | A9166G | 0.657
T128P | A9168C | 0.248
T128K | C9169A | 0.278
T128R | C9169G | 0.373
T128I | C9169T | 0.775
P129S | C9171T | 1.75
P129L | C9172T | 0.717
P131A | C9177G | 0.438
P131S | C9177T | 0.711
P131Q | C9178A | 0.660
P131L | C9178T | 0.761
G132V | G9181T | 0.983
V133F | G9183T | 0.734
V133G | T9184G | 0.977
R134G | A9186G | 0.963
R134I | G9187T | 0.589
P136Q | C9193A | 0.608
L137V | C9195G | 1.84
L137P | T9196C | 0.603
F139I | T9201A | 0.490
F139Y | T9202A | 0.641
F139C | T9202G | 0.617
F139L | T9203A | 0.699
F139L | T9203G | 0.840
G140R | G9204A | 0.471
G140R | G9204C | 0.626
G140E | G9205A | 0.863
G140V | G9205T | 0.446
W141R | T9207A | 0.605
W141R | T9207C | 0.441
W141S | G9208C | 0.290
W141L | G9208T | 0.476
C142R | T9210C | 0.326
C142Y | G9211A | 0.417
C142S | G9211C | 0.509
C142F | G9211T | 0.166
Y143H | T9213C | 0.417
Y143S | A9214C | 0.517
K144E | A9216G | 0.699
K144T | A9217C | 0.671
K144N | G9218C | 0.526
K144N | G9218T | 0.767
L145V | C9219G | 0.927
L145Q | T9220A | 0.575
V146I | G9222A | 0.897
V146A | T9223C | 0.669
P147T | C9225A | 0.977
P147R | C9226G | 0.804
P147L | C9226T | 0.831
V148L | G9228C | 0.199
E149G | A9232G | 0.958
P150T | C9234A | 0.956
P150A | C9234G | 0.379
D151Y | G9237T | 0.580
D151E | T9239A | 0.712

The first 12 entries again:

mutation	base	RC index
H102R	A9091G	0.775
H102Q	C9092A	0.378
H102Q	C9092G	0.352
S103Y	C9094A	0.361
S103C	C9094G	0.880
S103F	C9094T	0.955
Q104P	A9097C	0.470
Q104R	A9097G	1.21
Q104H	A9098C	0.488
Q104H	A9098T	0.673
R105G	A9099G	0.714
R105S	A9101T	0.702

From the data files of Al-Mawsawi et al. 2014, doi:10.1186/s12977-014-0124-6.